Here are results for six substances from PMC7660905, “Convergent structural features of respiratory syncytial virus neutralizing antibodies and plasticity of the site V epitope on prefusion F” (2020).

The experiment concerns the target RSB1 IgG (human neutralizing monoclonal antibody). Briefly: SPR. The note with it: read off a plot; for Kd: parent: est. 1.5e-10; for ratio to parent: parent: est. 1.0.

As for “DS-Cav1 (stabilized prefusion RSV glycoprotein F) (from UniProt P03420) N63A”, the equilibrium dissociation constant (Kd) – broadly, the equilibrium constant for the complex coming apart – came to 0.13 nM and the ratio to parent came out at 0.9. For “DS-Cav1 (stabilized prefusion RSV glycoprotein F) (from UniProt P03420) D200N” the same measures were 0.073 nM and 0.5. For “DS-Cav1 (stabilized prefusion RSV glycoprotein F) (from UniProt P03420) N63A; K65A”, the Kd stood at 2.4 nM. The same measure, in the same setting: then “DS-Cav1 (stabilized prefusion RSV glycoprotein F) (from UniProt P03420) K65A”, with 0.57 nM. With “DS-Cav1 (stabilized prefusion RSV glycoprotein F) (from UniProt P03420) D200N; N276S”, the Kd was 0.073 nM and the ratio to parent was 0.5. With “DS-Cav1 (stabilized prefusion RSV glycoprotein F) (from UniProt P03420) N276S”, the Kd worked out at 0.025 nM and the ratio to parent is 0.2.
